In experiment [1] the test system is A431 (EGFR++/HER2+/-/CD71+) xenograph. The experiment in a line: A431 xenograph nude mouse tumor model, 2T2C tumor targeted cell killing. It counts as in vivo. As to conditions: second experiment: 25 mg/kg cetuximab-(Cys-L-SO1861)^4 i.p. + 0.03 mg/kg toxin conjugate i.v., day 9, 14, then weekly; cetuximab as positive control. The text has this: The 2 target 2-components system (2T2C) is the combination treatment of mAb1-SO1861 and mAb2-protein toxin, (FIG. 1B-D).

The next experiment deals with A431 cells. The experiment in a line: Cell viability (MTS) assay, targeted protein toxin mediated cell killing. It counts as cell-based, human. As to conditions: A431 (EGFR++/HER2+/-).
For the next experiment, the system named is MDA-MB-468 cells. Described as above. The note with it: read-out: IC50, mAb or T-DM1 monotherapy. The format is cell-based, human.

Regarding “Cetuximab: monoclonal antibody recognizing and binding human EGFR”, the tumor response result in experiment [1] is “only tumor growth inhibition, but no regression”. Further, the “IC50, cell killing; titration of SO1861 conjugate or unconjugated mAb control, alone or + fixed toxin conjugate as in label” value with A431 cells is recorded as “could not induce any cell killing activity”. A word on the IC50: it is the concentration that gives 50% inhibition. Regarding “T-DM1: Trastuzumab-emtansine carrying ~3.5 DM1 toxin molecules per antibody”, in the experiment on MDA-MB-468 cells, the concentration for half-maximal inhibition (IC50) stood at 0.06 µM. As to “cetuximab-(Cys-L-SO1861)^3,7: SO1861-EMCH conjugated via cysteine residues to cetuximab”, the “IC50, cell killing; titration of SO1861 conjugate or unconjugated mAb control, alone or + fixed toxin conjugate as in label” value in the experiment on A431 cells is given as “could not induce any cell killing activity”.
